Laboratory results from PubChem BioAssay AID485341 (National Center for Advancing Translational Sciences (NCATS), 2010).
“And” between values parts separate entries of the source, which are not always exact repeats. Identical values can stand only once. This is a selection; strong and weak results do not stand in their true shares. The source made the active and inactive calls. Calls follow the shape of the dose curve; as a rule, active = well fitted inhibition curve with a large enough effect; inconclusive = small, poorly fitted or top-dose-only effect; inactive = no such curve, though single readings can be large or run the other way.

Protein sequences, listed by entry. Tags and fused reporters are not part of them. Lines headed by an entry give the natural chain unless they say otherwise; changes in a name come on top.
UniProt P00811: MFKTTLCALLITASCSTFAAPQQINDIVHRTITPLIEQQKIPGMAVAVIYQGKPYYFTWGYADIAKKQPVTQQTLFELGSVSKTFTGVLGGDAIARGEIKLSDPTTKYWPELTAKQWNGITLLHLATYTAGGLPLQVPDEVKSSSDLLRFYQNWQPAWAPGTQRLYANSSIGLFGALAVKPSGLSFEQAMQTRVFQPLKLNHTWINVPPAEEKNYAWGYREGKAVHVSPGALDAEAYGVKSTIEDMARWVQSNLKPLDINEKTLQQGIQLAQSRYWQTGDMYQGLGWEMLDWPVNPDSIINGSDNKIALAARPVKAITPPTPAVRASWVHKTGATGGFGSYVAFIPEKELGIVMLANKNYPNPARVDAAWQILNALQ

target: Beta-lactamase (Escherichia coli (strain K12)) (UniProt P00811); assay: qHTS Inhibitors of AmpC Beta-Lactamase (assay without detergent); settings: AmpC nitrocefin hydrolysis, absorbance 480 nm, 0.0001% Triton; at 57.1 µM (top of the series) unless noted; also: nearly all actives have a fitted effect of over 20% in size
Experimental: NIH Molecular Libraries Probe Production Network [MLPCN] NIH Chemical Genomics Center [NCGC] Assay Provider: Professor Brian Shoichet, UCSF Assay Overview: This aggregation profiling approach exploits the sensitivity of aggregate formation to detergent. Inhibition of b-lactamase is measured in the presence and absence of 0.01% Triton X-100. This particular assay had the prescence of 0.01% Triton X-100. See Pubchem assay "Promiscuous and Specific Inhibitors of AmpC Beta-Lactamase (assay without detergent)" for related screen. Compounds that inhibit only in the absence of detergent are considered likely promiscuous aggregators. A screen of 1,030 compounds was performed in Brian Shoichet's lab in 96-well format. AmpC activity was measured by following the absorbance at 480 nm. Nitrocefin is a chromogenic substrate: while nitrocefin is yellow (lmax 390 nm), the product of its hydrolysis is red (lmax 486 nm, 17,000 M-1). AmpC beta lactamase was provided by Shoichet Lab, UCSF.
Buffer: 20 mM phosphate buffer, pH 7.0 Triton X-100: No Detergent screen: 0.0001%, Detergent screen: 0.01%. Reagents/Controls: Buffer in columns 3 and 4 as negative control (no enzyme). 5.3 nM AmpC in columns 1, 2, 5-48. Titration of UCSF compound 9 control (from 10 mM, then 1:2) pin-transferred to column 2. Column 1 is neutral (100% activity). Assay Steps: Six uL of reagents were dispensed to 1536-well Greiner black clear bottom plates. Compounds and controls (23 nL) were transferred via Kalypsys PinTool. The plates were incubated for 15 min at room temperature, and then 2 uL of 800 uM solution of nitrocefin was added to start the reaction. The plates were immediately transferred to and read every 20 seconds for 4 min on ViewLux (Perkin-Elmer) High-throughput CCD imager using 480 nm absorbance protocol. During dispense, reagent bottles were kept submerged into 4 deg C water bath. Keywords: NIH Roadmap, MLSCN, MLI, MLSMR, qHTS, NCGC, AmpC Beta-Lactamase, Aggregation

Row | SMILES | activity change, negative = inhibition
1 | CN1CCCC(OC(=O)C(c2ccccc2)c2ccccc2)C1 (stereo not drawn) | inactive: 8.37%
2 | Clc1ccc(Cl)c(NC2=NCC(CBr)S2)c1 (stereo not drawn) | inactive: -22.5%
3 | COc1ccccc1OP(=O)(Nc1ccc(C)cn1)Oc1ccccc1OC | inactive: -7.39%
4 | Cc1ccc(OP(=O)(Nc2nccs2)Oc2ccc(C)cc2)cc1 | inactive: -33.9%
5 | CN(C(=O)Cc1ccc(Cl)c(Cl)c1)[C@H]1CCCC[C@H]1N1CCCC1 | inactive: 9.01%
6 | Cc1ccc(N/C(=N/P(=O)(N2CCOCC2)N2CCOCC2)N2CCOCC2)cc1 | inactive: -7.28%
7 | NC(=O)c1cc([N+](=O)[O-])cc([N+](=O)[O-])c1N | inactive: -8.43%
8 | Oc1ccccc1CNc1ccccn1 | inactive: -13.5%
9 | O=C(NC(Sc1ccncn1)C(Cl)(Cl)Cl)c1ccccc1 (stereo not drawn) | inactive: -21.1%
10 | Cc1c2non([O-])c-2c(C)[n+](=O)[n+]1[O-] | inactive: -26.4%
11 | Nc1cc(N)c2nonc2c1[N+](=O)[O-] | inactive: -10.1%
12 | CC(C)CC(=O)NC(Sc1ccc(Cl)cc1)C(Cl)(Cl)Cl (stereo not drawn) | inactive: -12.2%
13 | Cc1cc(SC(NC(=O)c2ccc(F)cc2)C(Cl)(Cl)Cl)ncn1 (stereo not drawn) | inactive: -11.5%
14 | CCOP(=O)(Nc1ccccc1)OCC | inactive: -4.96% and inactive: -6.1%
15 | Cc1ccc(NP(=O)(Oc2ccccc2F)Oc2ccccc2F)nc1 | inactive: -12.3%
16 | O=P(Nc1nc2ccc(Cl)cc2s1)(c1ccccc1)c1ccccc1 | inactive: -36.2%
17 | CC(=O)Nc1ccc([As](=O)(O)O)cc1 | inactive: -1.02%
18 | O=C(O)c1ccccc1[As](=O)(O)O | inactive: -21.8%
19 | Nc1cccc2ccc([As](=O)(O)O)cc12 | inactive: -14.4%
20 | CCN(N=Nc1nonc1N)c1nonc1N | inactive: -17.1%
21 | O=[N+]([O-])c1cc([N+](=O)[O-])c(CCN2CCOCC2)c([N+](=O)[O-])c1 | inactive: -52.4%

Row | SMILES | activity change, negative = inhibition
22 | O=C(Nc1cc([As](=O)(O)O)ccc1O)c1ccccc1 | inactive: -13.1%
23 | O=C(O)CNc1ccc([As](=O)(O)O)cc1 | inactive: -6.66%
24 | O=[N+]([O-])c1cccc(NC2=NCC(CBr)S2)c1 (stereo not drawn) | inactive: -13.4%
25 | O=[N+]([O-])c1ncn(CCn2ncnc2[N+](=O)[O-])n1 | inactive: -7.08%
26 | CC(C)(C)C(=O)NC(Sc1ccncn1)C(Cl)(Cl)Cl (stereo not drawn) | inactive: -0.218%
27 | Cc1ccc(NP(=O)(Oc2ccccc2)Oc2ccccc2)nc1 | inactive: -30.5%
28 | CCc1nc2c(n1)c1c(non1O)c1c2no[n+]1[O-] | inactive: -8.86%
29 | O=[N+]([O-])c1cc([N+](=O)[O-])c(CCNc2ccccc2)c([N+](=O)[O-])c1 | inactive: -46.1%
30 | O=[N+]([O-])c1cccc2n[nH]nc12 | inactive: 0.585%
31 | CC(=O)N1C2C3N(C(C)=O)C1C1N(C(C)=O)C(C(N1C(C)=O)N3C(C)=O)N2C(C)=O | inactive: -6.59%
32 | COc1ccc(C2=NCC(CBr)S2)cc1 (stereo not drawn) | inactive: -4.1%
33 | CC1CCN(C(=O)Oc2c(Cl)cc(Cl)c3cccnc23)CC1 | inactive: 139%
34 | CC(C)=N/N=C(\N)N[N+](=O)[O-] | inactive: 6.7%
35 | CN(C)C(=O)OCCc1n(C)cc[n+]1C | inactive: -14.3%
36 | CCN(/C(=N/P(=O)(N1CCOCC1)N1CCOCC1)N1CCOCC1)c1ccc(OC)cc1 | inactive: 0.723%
37 | Nc1ccc([As](=O)(O)c2ccc(N)cc2)cc1 | inactive: 75.8%
38 | C[N+]1=C2C=CC=CC=C2SC12C([N+](=O)[O-])=CC([N+](=O)[O-])=C[C-]2[N+](=O)[O-] (stereo not drawn) | inactive: -31.6%
39 | c1nnnn1CCn1cnnn1 | inactive: -21.8%
40 | CC(C)C(=O)NC(Sc1ccccc1)C(Cl)(Cl)Cl (stereo not drawn) | inactive: -9.87%
41 | O=P(Nc1nccs1)(c1ccccc1)c1ccccc1 | inactive: -16%
42 | O=P(Nc1nc2ccccc2s1)(c1ccccc1)c1ccccc1 | inactive: -20.8%

Row | SMILES | activity change, negative = inhibition
43 | C[C@H]1OP(=O)(Oc2ccccc2)[C@H](O)[C@H](O)[C@H]1N=[N+]=[N-] (stereo partly drawn) | inactive: -16.6%
44 | O=P(Nc1ccccn1)(c1ccc(Br)cc1)c1ccc(Br)cc1 | inactive: 5.64%
45 | CN(C)C1(CNC(=O)c2ccc(Cl)c(S(N)(=O)=O)c2)CCCCC1 | inactive: 1.49%
46 | O=C(OC1CN2CCC1CC2)c1cccc(Cl)c1 (stereo not drawn) | inactive: -5.77%
47 | C(Cc1nn[nH]n1)Cc1nn[nH]n1 | inactive: 1.17%
48 | Nc1ccc([As](=O)(O)c2ccc([N+](=O)[O-])cc2)cc1 | inactive: -11.8%
49 | O=[As](O)(c1ccccc1)c1ccc(O)cc1 | inactive: -2.83%
50 | O=[N+]([O-])c1ccc(O)c(/C=N/Nc2ccc([N+](=O)[O-])cc2[N+](=O)[O-])c1 | inactive: -25%
51 | O=[N+]([O-])c1ncn(CCn2cnc([N+](=O)[O-])n2)n1 | inactive: -3.23%
52 | CC(=O)NC(SC(=S)N(C)C)C(Cl)(Cl)Cl (stereo not drawn) | inactive: -10%
53 | c1ccc(-c2nn[nH]n2)c(-c2nn[nH]n2)c1 | inactive: 7.3%
54 | CCOC(=O)NC(Sc1ccccc1)C(Cl)(Cl)Cl (stereo not drawn) | inactive: -33.4%
55 | Cc1ccc(NP(=O)(Oc2cccc(C)c2)Oc2cccc(C)c2)nc1 | inactive: -16.7%
56 | CCNC(=S)/N=C(\N)N[N+](=O)[O-] | inactive: -12.9%
57 | O=C(NC1CCS(=O)(=O)C1)NP(=S)(Oc1ccccc1)Oc1ccccc1 (stereo not drawn) | inactive: -28.5%
58 | CC(NC(=O)COC(=O)C(O)(c1ccccc1)c1ccccc1)c1ccccc1 (stereo not drawn) | inactive: 23.1%
59 | Cc1ccccc1OP(=O)(Nc1ccccn1)Oc1ccccc1C | inactive: 0.899%
60 | O=c1c2cc([N+](=O)[O-])ccc2[nH]c2c([N+](=O)[O-])cc([N+](=O)[O-])cc12 | inactive: -16.7%
61 | CN(C)C(=O)Oc1noc2ccccc12 | inactive: -10.3%
62 | O=C(OC1CN2CCC1CC2)c1ccccc1 (stereo not drawn) | inactive: -10.4%
63 | CCC(=O)N1C2C3N(C(=O)CC)C1C1N(C(=O)CC)C(C(N1C(=O)CC)N3C(=O)CC)N2C(=O)CC | inactive: -3.85%
